Compound potency records, mixed from different reports. Data source: NIAID ChemDB in PubChem.

Shared fields: whole-cell or culture tests; agent: HIV-1; cell line: MT-4; measure: fold resistance

An empty or dashed field is not shown.

structure,strain,method,changes,result
CCc1c(C)[nH]c(=O)c(OC)c1Oc1cc(C)cc(C)c1,,cytopathic effect / MTT,RT-Y188L,318
CCOCn1c(Cc2ccccc2)c(C(C)C)c(=O)[nH]c1=O,N119 RT-Y181C NNRTI-resistant,cytopathic effect / MTT,RT-Y181C,2200
CCOC(=O)CCc1nc(-c2ccc(S(=O)(=O)N(CC(C)C)C[C@@H](O)[C@H](Cc3ccccc3)NC(=O)O[C@H]3CO[C@H]4OCC[C@H]43)cc2)co1,,cytopathic effect / MTT,PR-L010F M046I M071V I084V,30
CCc1c(Cc2cccc(Cc3nc(SC)nc(OC)c3CC)c2)nc(SC)nc1OC,NNRTI-resistant,cytopathic effect / MTT,RT-Y181C,>2.4
CCn1c(C)c(C(=O)OC)c(C(=O)OC)c1Cc1ccccc1,A17,cytopathic effect / MTT,RT-K103N Y181C,>3.1
CC(C)CN(C[C@@H](O)[C@H](Cc1ccccc1)NC(=O)O[C@H]1CO[C@H]2OCC[C@H]21)S(=O)(=O)c1ccc(-c2cnc(NC(=O)O[C@H]3CO[C@H]4OCC[C@H]43)[nH]2)cc1,,cytopathic effect / MTT,PR-L010F M046I M071V I084V,2.6
Cc1cc(N)cc(C)c1Oc1nc(N)nc(Nc2ccc(C#N)cc2)n1,,cytopathic effect / MTT,RT-Y181C,12.8
N#Cc1cc2[nH]c3ccccc3c2n(-c2ccc([N+](=O)[O-])cc2)c1=O,B,cytopathic effect / MTT,RT-K103N,4
Nc1nc(NC2CC2)c2ncn([C@H]3C=C[C@@H](CO)C3)c2n1,XM-M184V,p24,RT-M184V,5
C=C(c1cc(C)cc(C)c1)c1c(CC)c(=O)[nH]c(=O)n1COC/C=C/c1ccccc1,IIIB,cytopathic effect / MTT,RT-K103N Y181C,3330
O=C1Nc2ccc(Cl)cc2[C@@](C#CC2CC2)(C(F)(F)F)N1,,p24,RT-L100I K103N,550
CC(C)Cc1c(OC2CCCC2)c2cc(Cl)ccc2[nH]c1=O,Nevirapine-resistant (RT Y181C),,RT-Y181C,17.9
COCCNC(=O)CSc1cnc(Nc2ccc(C#N)cc2)nc1Oc1c(C)cc(C#N)cc1C,,MTT,F227L V106A,40
Cc1cc2[nH]cnc2cc1NC(=O)COc1ccc(Cl)cc1C(=O)c1cc(F)cc(C(F)(F)F)c1,Nevirapine-resistant (RT Y181C),cytopathic effect / propidium iodide,RT-Y181C,~1
CC(C)CN(C[C@@H](O)[C@H](Cc1ccccc1)NC(=O)OC1COC2OCCC12)S(=O)(=O)c1ccc2ncn(Cc3ccccc3)c2c1,R13080,cytopathic effect / MTT,PR-L10F M46I M71V I84V,48
Cc1cc(C#N)cc(C)c1Oc1nc(Nc2ccc(C#N)cc2)ncc1SCC(N)=O,,MTT,L100I,4.8
CCc1cc(=O)c2ccc3c(c2o1)[C@@H](OC(=O)C12CCC(C)(C(=O)O1)C2(C)C)[C@@H](OC(=O)C12CCC(C)(C(=O)O1)C2(C)C)C(C)(C)O3,RTMDR1,p24,RT-M41L L74V V106A T215Y,4.28
C=CCOCn1c(Cc2cccc(Cc3[nH]c(=O)[nH]c(=O)c3CC)c2)c(CC)c(=O)[nH]c1=O,RT-K103N+Y181C NNRTI-resistant,cytopathic effect / MTT,RT-K103N Y181C,>9.1
O=C1Nc2ccc(Cl)c(O)c2[C@@](C#CC2CC2)(C(F)(F)F)N1,,p24,RT-L100I K103N,840
CCc1c(C(C)c2c(F)cccc2F)nc(SC/C=C/c2ccc([N+](=O)[O-])cc2)[nH]c1=O,NNRTI-resistant,cytopathic effect / MTT,RT-Y181C,>1437500
CCc1c(Cc2cc(C)cc(C)c2)n(COC2C=CCCC2)c(=O)[nH]c1=O,NNRTI-resistant (RT Y181C) N119,cytopathic effect / MTT,RT-Y181C,>2500
Cc1cc(S(N)(=O)=O)ccc1NC(=O)COc1ccc(Cl)cc1C(=O)c1cc(Cl)cc(Cl)c1,Nevirapine-resistant (RT Y181C),cytopathic effect / propidium iodide,RT-Y181C,~1
CSCSc1nc(C(C)c2c(F)cccc2F)cc(=O)[nH]1,IIIB,cytopathic effect / MTT,RT-K103N Y181C,>125
CCc1c(Cc2cc(Cl)cc(Cl)c2)n(COC/C=C/c2ccccc2)c(=O)[nH]c1=O,NNRTI-resistant (RT Y181C) N119,cytopathic effect / MTT,RT-Y181C,75
CCCc1c(OC2CCCC2)c2cc(F)ccc2[nH]c1=O,Nevirapine-resistant (RT Y181C),,RT-Y181C,7.66
C[C@@H]1CCO[C@H]2Cn3cc(C(=O)NCc4ccc(F)cc4F)c(=O)c(O)c3C(=O)N12,NL4-3,luminescence,INSTI-resistant G140S/Q148H,2
C=C(c1cc(C)cc(C)c1)c1c(CC)c(=O)[nH]c(=O)n1COCC,IIIB,cytopathic effect / MTT,RT-Y181C,485.7
O=C(COc1ccc(Cl)cc1C(=O)c1cc2ccccc2o1)Nc1ccccc1,Nevirapine-resistant (RT Y181C),cytopathic effect / propidium iodide,RT-Y181C,~10
Nc1nc(=O)n([C@H]2C=C[C@@H](CO)O2)cc1F,XM-AZT-resistant,p24,RT-M41L D67N K70R T215Y K219Q,1.1
CCOCn1c(Cc2cc(Cl)cc(Cl)c2)c(CC)c(=O)[nH]c1=O,NNRTI-resistant (RT K103N Y181C) A17,cytopathic effect / MTT,RT-K103N Y181C,>250
O=C1Nc2ccc(Cl)cc2[C@@](/C=C/C2CC2)(C(F)(F)F)N1,,p24,RT-L100I K103N,805
Cc1cc(C#N)cc(C(=O)c2cc(Cl)ccc2OCC(=O)Nc2ccc(S(N)(=O)=O)cc2C)c1,Nevirapine-resistant (RT Y181C),cytopathic effect / propidium iodide,RT-Y181C,~1
CC(=O)Nc1nc(-c2ccc(S(=O)(=O)N(CC(C)C)C[C@@H](O)[C@H](Cc3ccccc3)NC(=O)O[C@H]3CO[C@H]4OCC[C@H]43)cc2)cs1,,cytopathic effect / MTT,PR-L010F M046I M071V I084V,151
CCc1c(C)[nH]c(=O)c(I)c1Oc1cc(C)cc(C)c1,,cytopathic effect / MTT,RT-L100I,5
CCc1c(Cc2cccc(Cc3nc(SC(C)C)[nH]c(=O)c3CC)c2)nc(SC(C)C)[nH]c1=O,NNRTI-resistant,cytopathic effect / MTT,RT-Y181C,>2.5
Cc1cc(C)c(Oc2nc(Nc3ccc(C#N)cc3)c(=O)n(C)c2C)c(C)c1,,cytopathic effect / MTT,RT-L100I,10
NC(=O)c1[nH]c2ccc(Cl)cc2c1S(=O)(=O)c1ccccc1,,cytopathic effect / MTT,RT-K103N Y181C,8000
CCOCn1c(Cc2cccc(Cc3c(CC)c(=O)[nH]c(=O)n3COCC)c2)c(CC)c(=O)[nH]c1=O,RT-K103N+Y181C NNRTI-resistant,cytopathic effect / MTT,RT-K103N Y181C,>7.1
COc1cc2c(cc1Cc1cccc(Cl)c1F)c(=O)c(C(=O)O)cn2[C@H](CO)C(C)C,NL4-3,luminescence,N222K,1
C=CCNC(=O)CSc1cnc(Nc2ccc(C#N)cc2)nc1Oc1c(C)cc(C#N)cc1C,,MTT,K103N,0.8
C=C(c1cc(C)cc(C)c1)c1c(CC)c(=O)[nH]c(=O)n1COC/C(C)=C/c1ccccc1,IIIB,cytopathic effect / MTT,RT-K103N Y181C,3330
COc1ccc(/C=C/CSc2nc(Cc3c(F)cccc3F)c(C)c(=O)[nH]2)cc1,NNRTI-resistant,cytopathic effect / MTT,RT-K103N,>9139
C#CCOCn1c(Cc2cc(Cl)cc(Cl)c2)c(CC)c(=O)[nH]c1=O,NNRTI-resistant (RT K103N Y181C) A17,cytopathic effect / MTT,RT-K103N Y181C,250
Cc1cc(C#N)cc(C)c1Oc1nc(Nc2ccc(C#N)cc2)ncc1SCC(=O)Nc1ccc(S(C)(=O)=O)cc1,,MTT,RES056,91.6
CCc1c(Cc2cccc3ccccc23)nc(SCC(=O)c2ccc(C)cc2)[nH]c1=O,SO561945,cytopathic effect,RT-K103N Y181C,≥17.6
CCCc1c(SCC2CCC2)c2cc(F)ccc2[nH]c1=O,Nevirapine-resistant (RT Y181C),,RT-Y181C,2.71
COc1ccc(C(=O)CSc2nc(Cc3cccc4ccccc34)c(C)c(=O)[nH]2)cc1,SO561945,cytopathic effect,RT-K103N Y181C,≥783.9
CCc1c(C)[nH]c(=O)c(SC)c1Oc1cc(C)cc(C)c1,,cytopathic effect / MTT,RT-K103N Y181C,16
Cc1cc(C)cc(S(=O)(=O)c2c(C(N)=O)[nH]c3c(Cl)cc(Cl)cc23)c1,,cytopathic effect / MTT,RT-Y181C,>62.5
Cc1cc(C#N)cc(C)c1Oc1nc(Nc2ccc(C#N)cc2)ncc1SCC(=O)NCc1ccc(O)cc1,,MTT,F227L V106A,39.2
COc1c(Cl)ccc2c1[C@@](C#Cc1ccccc1)(C(F)(F)F)NC(=O)N2,,p24,RT-L100I K103N,698.1
CCOCn1c(Cc2ccccc2)c(C(C)C)c(=O)[nH]c1=O,NNRTI-resistant (RT Y181C) N119,cytopathic effect / MTT,RT-Y181C,2200
Cc1cc(C#N)cc(C)c1Oc1nc(Nc2ccc(C#N)cc2)ncc1SCC(=O)NCCN1CCOCC1,,MTT,E138K,3.8
CC(=O)Nc1ncc(-c2ccc(S(=O)(=O)N(CC(C)C)C[C@@H](O)[C@H](Cc3ccccc3)NC(=O)O[C@H]3CO[C@H]4OCC[C@H]43)cc2)[nH]1,,cytopathic effect / MTT,PR-L010F M046I M071V I084V,7.2
CCOCn1c(Cc2cccc(Cc3[nH]c(=O)[nH]c(=O)c3CC)c2)c(CC)c(=O)[nH]c1=O,RT-K103N+Y181C NNRTI-resistant,cytopathic effect / MTT,RT-K103N Y181C,>2.1
CCCc1c(OCC2CC2)c2cc(Cl)ccc2[nH]c1=O,Nevirapine-resistant (RT Y181C),,RT-Y181C,15.3
C=CCOCn1c(Cc2cccc(Cc3c(CC)c(=O)[nH]c(=O)n3COCC=C)c2)c(CC)c(=O)[nH]c1=O,RT-K103N+Y181C NNRTI-resistant,cytopathic effect / MTT,RT-K103N Y181C,>2.9
CCCc1c(Cc2ccccc2)n(COC/C(C)=C/c2ccccc2)c(=O)[nH]c1=O,NNRTI-resistant (RT K103N Y181C) A17,cytopathic effect / MTT,RT-K103N Y181C,>2500
C#CCNC(=O)CSc1cnc(Nc2ccc(C#N)cc2)nc1Oc1c(C)cc(C#N)cc1C,,MTT,K103N,0.7
CC(C)CN(C[C@@H](O)[C@H](Cc1ccccc1)NC(=O)O[C@H]1CO[C@H]2OCC[C@H]21)S(=O)(=O)c1ccc(-c2coc(-c3ccco3)n2)cc1,,cytopathic effect / MTT,PR-L010F M046I M071V I084V,44.7
CCOCn1c(Cc2ccccc2)c(C(C)C)c(=O)[nH]c1=O,NNRTI-resistant,cytopathic effect / MTT,RT-Y181C,666.7
C=Cc1cc(N(CC)CC)nc(SCc2ccc(OC)cc2)n1,NNRTI-resistant,cytopathic effect / MTT,RT-K103N,<0.115
CC(C)[C@H](NC(=O)OCc1ccccn1)C(=O)N[C@@H](Cc1ccccc1)[C@@H](O)C[C@H](Cc1ccccc1)NC(=O)OCc1cccnc1,NL4-3,p24,PR-L10R L63P V82T I84V,1.875
C=C(C)COCn1c(Cc2cc(Cl)cc(Cl)c2)c(CC)c(=O)[nH]c1=O,NNRTI-resistant (RT K103N Y181C) A17,cytopathic effect / MTT,RT-K103N Y181C,>83
C=CCOCn1c(C(=C)c2cc(C)cc(C)c2)c(CC)c(=O)[nH]c1=O,IIIB,cytopathic effect / MTT,RT-Y181C,3330
Cc1ccc(C2CC2)c(-c2ccc3c(c2)CCCO3)c1[C@H](OC(C)(C)C)C(=O)O,NL4-3,luminescence,INSTI-resistant (IN-G140S),1
CCc1c(Cc2cc(Cl)cc(Cl)c2)n(COCC=C(C)C)c(=O)[nH]c1=O,NNRTI-resistant (RT Y181C) N119,cytopathic effect / MTT,RT-Y181C,>200
Cc1cc(C#N)cc(C)c1Oc1nc(Nc2ccc(C#N)cc2)ncc1SCC(=O)NC1CCN(C(=O)OC(C)(C)C)CC1,,MTT,L100I,7.1
CC(C)=CCN1Cc2cc(Cl)cc3[nH]c(=O)n(c23)C[C@@H]1C,IIIB,cytopathic effect / XTT,RT-L100I,>88
CCc1c(Cc2cc(C)cc(C)c2)n(COC/C(C)=C/c2ccccc2)c(=O)[nH]c1=O,NNRTI-resistant (RT K103N Y181C) A17,cytopathic effect / MTT,RT-K103N Y181C,1333
CCCc1c(OC2CCCC2)c2cc(OC(F)(F)F)ccc2[nH]c1=O,Nevirapine-resistant (RT Y181C),,RT-Y181C,7.67
CSCSc1nc(Cc2c(F)cccc2F)cc(=O)[nH]1,IIIB,cytopathic effect / MTT,RT-Y181C,67.5
Cc1cc(C#N)cc(C)c1Oc1nc(Nc2ccc(C#N)cc2)ncc1SCC(=O)NCCN1CCN(C(=O)OC(C)(C)C)CC1,,MTT,F227L V106A,27.4
Cc1cc(C)cc(S(=O)(=O)c2c(C(=O)/C=C/C(N)=O)[nH]c3ccc(Cl)cc23)c1,,cytopathic effect / MTT,RT-K103N Y181C,>1666
CCc1c(C)[nH]c(=O)c(Br)c1Oc1cc(C)cc(C)c1,,cytopathic effect / MTT,RT-L100I K103N,32
Cn1c2ccccc2c2c1cc(C#N)c(=O)n2-c1ccc([N+](=O)[O-])cc1,C,cytopathic effect / MTT,RT-L100I K103N,3
CCc1c(Cc2cc(C)cc(C)c2)n(COCC2CC=CCC2)c(=O)[nH]c1=O,NNRTI-resistant (RT Y181C) N119,cytopathic effect / MTT,RT-Y181C,>5000

Repeating the first 7 entries:

structure | strain | method | changes | result
CCc1c(C)[nH]c(=O)c(OC)c1Oc1cc(C)cc(C)c1 |  | cytopathic effect / MTT | RT-Y188L | 318
CCOCn1c(Cc2ccccc2)c(C(C)C)c(=O)[nH]c1=O | N119 RT-Y181C NNRTI-resistant | cytopathic effect / MTT | RT-Y181C | 2200
CCOC(=O)CCc1nc(-c2ccc(S(=O)(=O)N(CC(C)C)C[C@@H](O)[C@H](Cc3ccccc3)NC(=O)O[C@H]3CO[C@H]4OCC[C@H]43)cc2)co1 |  | cytopathic effect / MTT | PR-L010F M046I M071V I084V | 30
CCc1c(Cc2cccc(Cc3nc(SC)nc(OC)c3CC)c2)nc(SC)nc1OC | NNRTI-resistant | cytopathic effect / MTT | RT-Y181C | >2.4
CCn1c(C)c(C(=O)OC)c(C(=O)OC)c1Cc1ccccc1 | A17 | cytopathic effect / MTT | RT-K103N Y181C | >3.1
CC(C)CN(C[C@@H](O)[C@H](Cc1ccccc1)NC(=O)O[C@H]1CO[C@H]2OCC[C@H]21)S(=O)(=O)c1ccc(-c2cnc(NC(=O)O[C@H]3CO[C@H]4OCC[C@H]43)[nH]2)cc1 |  | cytopathic effect / MTT | PR-L010F M046I M071V I084V | 2.6
Cc1cc(N)cc(C)c1Oc1nc(N)nc(Nc2ccc(C#N)cc2)n1 |  | cytopathic effect / MTT | RT-Y181C | 12.8

Rows are shuffled and stem from different studies. Fold resistance: result on the changed form divided by that on wild type.